Sequences of proteins named here, by UniProt entry; tags and fusion partners are left off. A change or cut given only in a name is not applied to a line headed by its entry. Residues count along the entry.
UniProt P26663, 1027-1206 limits assumed: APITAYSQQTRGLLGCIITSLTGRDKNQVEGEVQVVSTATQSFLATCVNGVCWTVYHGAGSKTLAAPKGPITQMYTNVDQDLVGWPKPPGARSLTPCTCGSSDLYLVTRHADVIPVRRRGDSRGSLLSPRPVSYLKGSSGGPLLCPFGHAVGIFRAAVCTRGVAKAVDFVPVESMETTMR

One assay deals with HCV NS3 protease (UniProt P26663). The conditions noted are these: Table 1. The protocol:
Recombinant HCV NS3 Protease/NS4A Cofactor Peptide Radiometric Assay
The enzyme was cloned, expressed and prepared according to the protocol described in Example 36. The enzyme was stored at −80° C., thawed on ice and diluted just prior to use in the assay buffer containing the NS4A cofactor peptide.
The substrate used for the NS3 protease/NS4A cofactor peptide radiometric assay, DDIVPC-SMSYTW, is cleaved between the cysteine and the serine residues by the enzyme. The sequence DDIVPC-SMSYTW corresponds to the NS5A/NS5B natural cleavage site in which the cysteine residue in P2 has been substituted for a proline. The peptide substrate DDIVPC-SMSYTW and the tracer biotin-DDIVPC-SMS[^125I-Y]TW are incubated with the recombinant NS3 protease and the NS4A peptide cofactor KKGSVVIVGRIILSGRK (molar ratio enzyme:cofactor 1:100) in the absence or presence of inhibitors. The separation of substrate from products is performed by adding avidin-coated agarose beads to the assay mixture followed by filtration. The amount of SMS[^125I-Y]TW product found in the filtrate allows for the calculation of the percentage of substrate conversion and of the percentage of inhibition.
The enzymatic reaction was initiated by the addition of the enzyme/NS4A peptide solution and the assay mixture was incubated for 40 min at 23° C. under gentle agitation. Ten (10) μL of 0.5N NaOH were added and 10 μL 1 M MES, pH 5.8 were added to quench the enzymatic reaction.
A non-linear curve fit with the Hill model was applied to the inhibition-concentration data, and the 50% effective concentration (IC50) was calculated by the use of SAS software (Statistical Software System; SAS Institute, Inc. Cary, N.C.). […]
The NS2-NS5B-3′ non coding region was cloned by RT-PCR into the pCR®3 vector (Invitrogen) using RNA extracted from the serum of an HCV genotype 1b infected individual (provided by Dr. Bernard Willems, Hôpital St-Luc, Montréal, Québec, Canada). The NS3-NS4A DNA region was then subcloned by PCR into the pFastBac™ HTa baculovirus expression vector (Gibco/BRL). The vector sequence includes a region encoding a 28-residue N-terminal sequence which contains a hexahistidine tag. The Bac-to-Bac™ baculovirus expression system (Gibco/BRL) was used to produce the recombinant baculovirus. The full length mature NS3 and NS4A heterodimer protein (His-NS3-NS4AFL) was expressed by infecting 10^6 Sf21 cells/mL with the recombinant baculovirus at a multiplicity of infection of 0.1-0.2 at 27° C. The infected culture was harvested 48 to 64 h later by centrifugation at 4° C. The cell pellet was homogenized in 50 mM NaPO4, pH 7.5, 40% glycerol (w/v), 2 mM β-mercaptoethanol, in presence of a cocktail of protease inhibitors. His-NS3-NS4AFL was then extracted from the cell lysate with 1.5% NP-40, 0.5% Triton X-100, 0.5M NaCl, and a DNase treatment. After ultracentrifugation, the soluble extract was diluted 4-fold and bound on a Pharmacia Hi-Trap Ni-chelating column. The His-NS3-NS4AFL was eluted in a >90% pure form (as judged by SDS-PAGE), using a 50 to 400 mM imidazole gradient. The His-NS3-NS4AFL was stored at −80° C. in 50 mM sodium phosphate, pH 7.5, 10% (w/v) glycerol, 0.5 M NaCl, 0.25 M imidazole, 0.1% NP-40. It was thawed on ice and diluted just prior to use. The protease activity of His-NS3-NS4AFL was assayed in 50 mM Tris-HCl, pH 8.0, 0.25 M sodium citrate, 0.01% (w/v) n-dodecyl-β-D-maltoside, 1 mM TCEP. Five (5) μM of the internally quenched substrate anthranilyl-DDIVPAbu[C(O)—O]-AMY(3-NO2)TW-OH in presence of various concentrations of inhibitor were incubated with 1.5 nM of His-NS3-NS4AFL for 45 min at 23° C. […] The reaction was terminated with the addition of 1M MES, pH 5.8. Fluorescence of the N-terminal product was monitored on a Perkin-Elmer LS-50B fluorometer equipped with a 96-well plate reader (excitation wavelength: 325 nm; emission wavelength: 423 nm).
The following tables list compounds representative of the invention.
In turn, `CC(C)[C@H](NC(=O)OC(C)(C)C)C(=O)N1C[C@H](Oc2cc(-c3ccccc3)nc3ccc([N+](=O)[O-])cc23)C[C@H]1C(=O)NC1(C(=O)O)CC1` had an IC50 of 8900 nM.
Consider `COc1ccc2c(O[C@@H]3C[C@@H](C(=O)NC4(C(=O)O)CC4)N(C(=O)[C@@H](NC(=O)OC(C)(C)C)C(C)(C)C)C3)cc(-c3ccccc3)nc2c1`, for which the IC50 was 475 nM.
The same measure, in the same setting: the same measure for `CC(C)(OC(=O)N[C@H](C(=O)N1C[C@H](OCc2cccc3ccccc23)C[C@H]1C(=O)NC1(C(=O)O)CC1)C1CCCCC1)C(Cl)(Cl)Cl`: 34000 nM; for `CCOC(=O)c1ccc(N[C@H](C(=O)N2C[C@H](OCc3cccc4ccccc34)C[C@H]2C(=O)NC2(C(=O)O)CC2)C2CCCCC2)cc1`: 42000 nM.
Same read-out and setting: the same measure for `CC(C)(C)OC(=O)N[C@H](C(=O)N1C[C@H](OCc2cccc3ccccc23)C[C@H]1C(=O)NC1(C(=O)O)CC1)C1CCCCC1`: 43000 nM; for `CC(C)(C)OC(=O)N[C@H](C(=O)N1C[C@H](Oc2cc(-c3ccccc3)nc3ccc([N+](=O)[O-])cc23)C[C@H]1C(=O)NC1(C(=O)O)CC1)C1CCCCC1`: 2800 nM.
Still for that read-out and setting: the same measure for `CC(C)[C@H](NC(=O)OC(C)(C)C)C(=O)N1C[C@H](Oc2ccnc3cc(Cl)ccc23)C[C@H]1C(=O)NC1(C(=O)O)CC1`: 9700 nM; for `C[C@H](C(=O)N[C@H](C(=O)N1C[C@H](OCc2cccc3ccccc23)C[C@H]1C(=O)NC1(C(=O)O)CC1)C1CCCCC1)C1CCCCC1`: 45000 nM; for `O=C(NC1CCCCC1)N[C@H](C(=O)N1C[C@H](OCc2cccc3ccccc23)C[C@H]1C(=O)NC1(C(=O)O)CC1)C1CCCCC1`: 47000 nM.
For the molecule `O=C(N[C@H](C(=O)N1C[C@H](OCc2cccc3ccccc23)C[C@H]1C(=O)NC1(C(=O)O)CC1)C1CCCCC1)C(CC1CCCCC1)CC1CCCCC1`, the IC50 worked out at 29500 nM.
The same measure, in the same setting: as for `CC(=O)N[C@H](C(=O)N1C[C@H](Oc2cc(-c3ccccc3)nc3ccc([N+](=O)[O-])cc23)C[C@H]1C(=O)NC1(C(=O)O)CC1)C1CCCCC1`, the figure is 6300 nM.

Staying with this assay, now noted: Table 2.
Take `CCC1CC1(NC(=O)[C@@H]1C[C@@H](OCc2cccc3ccccc23)CN1C(=O)[C@@H](NC(=O)OC(C)(C)C)C1CCCCC1)C(=O)O` (single isomer, unassigned) [201]: the IC50 was determined as 15000 nM.
On the same count and under the same terms, the same measure for `CCC1CC1(NC(=O)[C@@H]1C[C@@H](OCc2cccc3ccccc23)CN1C(=O)[C@@H](NC(=O)OC(C)(C)C)C1CCCCC1)C(=O)O` (single isomer, unassigned) [202]: 40000 nM.

The assay is the same for the next values; noted with them: Table 3.
`C=CC1CC1(NC(=O)C1CC(Oc2cc(-c3ccccc3)nc3ccccc23)CN1C(=O)C(NC(=O)C(F)(F)F)C(C)C)C(=O)O` (centres unmarked) returned an IC50 of 880 nM.
Consider `C=C[C@@H]1C[C@]1(NC(=O)[C@@H]1C[C@@H](Oc2cccc3cnccc23)CN1C(=O)[C@@H](NC(=O)OC(C)(C)C)C1CCCCC1)C(=O)O`, for which the IC50 came out at 2500 nM.
Take `CCC1CC1(NC(=O)C1CC(Oc2cc(-c3ccccc3)nc3cc(OC)ccc23)CN1C(=O)C(NC(=O)OC(C)(C)C)C(C)(C)C)C(=O)O` (centres unmarked): the IC50 came out at 130 nM.
On the same count and under the same terms, as for `C=CC1CC1(NC(=O)C1CC(Oc2nc(-n3ccnc3)nc3cc(OC)c(OC)cc23)CN1C(=O)C(NC(=O)OC(C)(C)C)C(C)(C)C)C(=O)O` (centres unmarked), the figure is 320 nM; as for `C=CC1CC1(NC(=O)C1CC(Oc2cc(-c3ccccc3)nc3ccccc23)CN1C(=O)C(NC(=O)NC(C)(C)C)C(C)(C)C)C(=O)O` (centres unmarked), 71 nM; as for `C=CC1CC1(NC(=O)C1CC(Oc2nc(-c3ccccc3)nc3ccccc23)CN1C(=O)C(NC(=O)OC(C)(C)C)C(C)(C)C)C(=O)O` (centres unmarked), 190 nM.
As to `C=CC1CC1(NC(=O)C1CC(Oc2ccnc3cc(Cl)ccc23)CN1C(=O)C(NC(=O)OC(C)(C)C)C1CCCCC1)C(=O)O` (centres unmarked), the IC50 was 560 nM.
The same measure, in the same setting: the same measure for `C=CC1CC1(NC(=O)C1CC(Oc2cc(-c3csc(NCC)n3)nc3cc(OC)ccc23)CN1C(=O)C(NC(=O)NC(C)C(C)(C)C)C(C)(C)C)C(=O)O` (centres unmarked): 7 nM; for `C=CC1CC1(NC(=O)C1CC(Oc2cc(-c3ccccn3)nc(-c3ccccn3)c2)CN1C(=O)C(NC(=O)OC(C)(C)C)C(C)(C)C)C(=O)O` (centres unmarked): 360 nM; for `C=CC1CC1(NC(=O)C1CC(Oc2cccc3ncccc23)CN1C(=O)C(NC(=O)OC(C)(C)C)C1CCCCC1)C(=O)O` (centres unmarked): 8500 nM.
Still for that read-out and setting: as for `C=CC1CC1(NC(=O)C1CC(Oc2cccc3c2CCN(C(C)=O)C3)CN1C(=O)C(NC(=O)OC(C)(C)C)C(C)(C)C)C(=O)O` (centres unmarked), the figure is 6000 nM.
Same read-out and setting: the same measure for `C=CC1CC1(NC(=O)C1CC(Oc2cc(-c3csc(NC(C)=O)n3)nc3cc(OC)ccc23)CN1C(=O)C(NC(=O)NC(C)C(C)(C)C)C(C)(C)C)C(=O)O` (centres unmarked): 3 nM; for `C=CC1CC1(NC(=O)C1CC(Oc2cc(C)nc3ccccc23)CN1C(=O)C(NC(=O)OC(C)(C)C)C1CCCCC1)C(=O)O` (centres unmarked): 2500 nM.
In turn, `C=CC1CC1(NC(=O)C1CC(Oc2ccnc3cc(OC)ccc23)CN1C(=O)C(NC(=O)NC(C)(C)C)C(C)(C)C)C(=O)O` (centres unmarked) displayed an IC50 of 45 nM.
For the molecule `C=CC1CC1(NC(=O)C1CC(Oc2cc(-c3ccccc3)nc3ccccc23)CN1C(=O)C(NC(=O)OC(C)(C)C)C1CCCCC1)C(=O)O` (centres unmarked), the IC50 was determined as 140 nM.
Still for that read-out and setting: as for `C=CC1CC1(NC(=O)C1CC(Oc2cc(Cl)c3ccccc3n2)CN1C(=O)C(NC(=O)OC(C)(C)C)C(C)(C)C)C(=O)O` (centres unmarked), the figure is 3200 nM; as for `CC[C@@H]1C[C@]1(NC(=O)[C@@H]1C[C@@H](OCc2cccc3cccnc23)CN1C(=O)[C@@H](NC(=O)OC(C)(C)C)C1CCCCC1)C(=O)O`, 32000 nM; as for `C=CC1CC1(NC(=O)C1CC(Oc2cc(-c3ccccc3)nc3ccc(NC(C)=O)cc23)CN1C(=O)C(NC(=O)OC(C)(C)C)C1CCCCC1)C(=O)O` (centres unmarked), 320 nM.
Consider `CC(C)(C)OC(=O)NC(C(=O)N1CC(Oc2nc(-c3ccccc3)nc3ccccc23)CC1C(=O)NC1(C(=O)O)CC1C1CC1)C(C)(C)C` (centres unmarked), for which the IC50 stood at 640 nM.
`C=CC1CC1(NC(=O)C1CC(Oc2nc(-c3ccccc3)nc3ccccc23)CN1C(=O)C(Nc1ccc(C(=O)O)cc1)C1CCCCC1)C(=O)O` (centres unmarked) had an IC50 of 650 nM.
On the same count and under the same terms, as for `C=CC1CC1(NC(=O)C1CC(Oc2cc(C(F)(F)F)nc3c(C(F)(F)F)cccc23)CN1C(=O)C(NC(=O)OC(C)(C)C)C(C)(C)C)C(=O)O` (centres unmarked), the figure is 1950 nM.

The assay is the same for the next values; noted with them: Table 4.
As for `C=CC1CCC1(NC(=O)[C@@H]1C[C@@H](Oc2cc(-c3ccccc3)nc3cc(OC)ccc23)CN1C(=O)[C@@H](NC(=O)OC(C)(C)C)C(C)(C)C)C(=O)O` (some centres unmarked), the IC50 was found to be 220 nM.
Turning to `C=C1CC(NC(=O)[C@@H]2C[C@@H](Oc3cc(-c4ccccc4)nc4cc(OC)ccc34)CN2C(=O)[C@@H](NC(=O)OC(C)(C)C)C(C)(C)C)(C(=O)O)C1`, the IC50 was 600 nM.
Consider `CC(C)[C@H](NC(=O)OC(C)(C)C)C(=O)N1C[C@H](Oc2ccnc3cc(Cl)ccc23)C[C@H]1C(=O)NC1(C(=O)O)CCC1`, for which the IC50 was 5800 nM.
For `CCC1CCC1(NC(=O)[C@@H]1C[C@@H](Oc2cc(-c3ccccc3)nc3cc(OC)ccc23)CN1C(=O)[C@@H](NC(=O)OC(C)(C)C)C(C)(C)C)C(=O)O` (some centres unmarked), the IC50 worked out at 400 nM.

The same assay, now with this note: Table 5.
In turn, `C=CC1CC1(NC(=O)C1CC(Oc2ccnc3ccccc23)CN1C(=O)C(NC(=O)OC(C)(C)C)C(C)OC)C(=O)O` (centres unmarked) [compound 505] had an IC50 of 2600 nM.
Still for that read-out and setting: the same measure for `C=CC1CC1(NC(=O)C1CC(Oc2ccnc3ccccc23)CN1C(=O)C(C)NC(=O)OC(C)(C)C)C(=O)O` (centres unmarked): 6200 nM.

Staying with this assay, now noted: read-out: activity / potency (HCV NS3 protease inhibition); text comparison of P1 configuration.
Take `COc1ccc2c(O[C@@H]3C[C@@H](C(=O)NC4(C(=O)O)CC4)N(C(=O)[C@@H](NC(=O)OC(C)(C)C)C(C)(C)C)C3)cc(-c3ccccc3)nc2c1`: the IC50 turned out to be 475 nM.

The values above are taken from US6534523B1, “Hepatitis C inhibitor tri-peptides” (Boehringer Ingelheim (Canada) Ltd., priority 1998, dated 2003).
